tested on: human foreskin fibroblast cells; assay: Cytotoxicity assay, CellTiter-Glo; details: cytotoxicity EC50 divided by P. falciparum antiparasitic EC50

Row | Molecule | S.I. (specificity index)
1 | COc1cc(/C=C2/NC(=O)N(Cc3ccccc3F)C2=O)cc(Br)c1O [SMDC103222, COc1cc(\C=C/2\NC(=O)N(Cc3ccccc3F)C2=O)cc(Br)c1O] | 17
2 | CC(Oc1cccc(Cl)c1)C(=O)Nc1sc2c(c1C(N)=O)CCCCC2 (stereo not drawn) [SMDC106517, CC(Oc1cccc(Cl)c1)C(=O)Nc2sc3CCCCCc3c2C(=O)N] | 11
3 | CCc1nccn1C(=O)c1cnn2c(C(F)F)cc(-c3ccccc3)nc12 [SMDC158691, CCc1nccn1C(=O)c2cnn3c(cc(nc23)c4ccccc4)C(F)F] | 8
4 | N#CC1=C2SCN(Cc3ccco3)CN2C(=O)CC1c1cccc(OCc2ccccc2)c1 (stereo not drawn) [SMDC170136, O=C1CC(C(=C2SCN(Cc3occc3)CN12)C#N)c4cccc(OCc5ccccc5)c4] | 13
5 | N#CC1=C2SCN(C3CCCCC3)CN2C(=O)CC1c1cccc2ccccc12 (stereo not drawn) [SMDC170156, O=C1CC(C(=C2SCN(CN12)C3CCCCC3)C#N)c4cccc5ccccc45] | 8
6 | COc1cccc(C2CC(=O)N3CN(CCc4sccc4C)CSC3=C2C#N)c1 (stereo not drawn) [SMDC178790, COc1cccc(c1)C2CC(=O)N3CN(CCc4sccc4C)CSC3=C2C#N] | 50
7 | Cc1ccsc1CCN1CSC2=C(C#N)C(c3ccc(Cl)cc3)CC(=O)N2C1 (stereo not drawn) [SMDC178801, Cc1ccsc1CCN2CSC3=C(C#N)C(CC(=O)N3C2)c4ccc(Cl)cc4] | 1.7
8 | CCOc1ccc(C2CC(=O)N3CN(C(C)c4ccccc4)CSC3=C2C#N)cc1 (stereo not drawn) [SMDC178822, CCOc1ccc(cc1)C2CC(=O)N3CN(CSC3=C2C#N)C(C)c4ccccc4] | 3.6
9 | Brc1ccc(cc1)C(=O)c2nocc2C(=O)c3cccnc3 [SMDC112054] | 10
